Results of unrelated studies side by side (data: NIAID ChemDB).

Common to all: growth or infection tests; species: HIV-1; cell line: MT-4; measure: EC50

Rows are shuffled and stem from different studies. Blank or dashed fields: not listed here. ECn: concentration that inhibits the pathogen or its effect by n%. a–b is a range or a potency band.

SMILES | strain | mutations | read by | conditions | value
CCc1c(Cl)nc(Nc2ccc(C#N)cc2)nc1Oc1ccc2cc(C#N)ccc2c1 | IIIB | WT | MTT |  | 0.667 µM
CN1c2ccccc2C2C1C=C(C#N)C(=O)N2c1ccc(-c2ccoc2)cc1 | LAI |  | cytopathic effect / MTT |  | >32 µM
CN1CC(=O)N2c3ccccc3S(=O)(=O)n3cccc3C2C1=O | IIIB |  | MTT |  | >302 µM
Cc1cc(S(N)(=O)=O)ccc1NC(=O)COc1ccc(Cl)cc1C(=O)c1cc(F)cc(C(F)(F)F)c1 | IIIB | RT-Y181C |  |  | 0.0014 µM
O=C1C(c2nn[nH]n2)=CC2Nc3ccccc3C2N1c1ccc([N+](=O)[O-])cc1 | LAI |  | cytopathic effect / MTT |  | 1–32 µM
CCCCN1C(=O)[C@@H](Cc2ccccc2)NC1=S |  |  | cytopathic effect / XTT |  | <10 µg/mL
O=S1(=O)c2ccccc2-n2cnnc2-c2cccn21 | IIIB |  | MTT |  | 46 µM
Cc1cc(/C=C/C#N)cc(C)c1Nc1nc(Nc2ccc(C#N)cc2)ncc1C(O)OCCO | IIIB |  |  |  | 0.00302 µM
O=C(NCCc1ccccc1)Nc1ncco1 |  |  | cytopathic effect / XTT |  | >10 µg/mL
Cc1cc(C#N)cc(C)c1Oc1nc(Nc2ccc(C#N)cc2)ncc1SCC(=O)NC1CCN(C(=O)OC(C)(C)C)CC1 |  | Y188L | MTT |  | 0.1715 µM
Cc1cc(/C=C/C#N)cc(C)c1Nc1nc(Nc2ccc(C#N)cc2)ncc1C(O)OCc1cccnc1 | MDR |  |  |  | 437 µM
Cc1cc(C#N)cc(C)c1Oc1nc(Nc2ccc(C#N)cc2)ncc1SCC(N)=O |  | Y188L | MTT |  | 0.08 µM
C=C[C@]1(CO)O[C@@H](n2cnc3c(N)nc(N)nc32)C[C@@H]1O | NL4-3 |  | absorbance |  | 0.004 µM
Cc1cc(/C=C/C#N)cc(C)c1Nc1nc(Nc2ccc(C#N)cc2)ncc1C(O)n1ccnc1 | Y181C |  |  |  | 0.0195 µM
Brc1cnc2nc(-c3ccoc3)[nH]c2c1 | IIIB |  | MTT |  | >20 µM
COc1ccc(S(=O)(=O)N(CC(C)C)C[C@@H](O)[C@H](Cc2ccccc2)NC(=O)[C@H](C(C)C)N2CC(=O)N(Cc3csc(C)n3)C2=O)cc1 |  |  | cytopathic effect / MTT | 50% human serum | 0.161 µM
CNC(O)c1cnc(Nc2ccc(C#N)cc2)nc1Nc1c(C)cc(/C=C/C#N)cc1C | IIIB |  |  |  | 0.01047 µM
COc1ccc(-c2nc(-c3ccc(N4C(=O)C=CC5C4c4ccccc4N5C)cc3)no2)cc1OC | LAI |  | cytopathic effect / MTT |  | 1–32 µM
Cc1cc(C#N)cc(C)c1Oc1nc(Nc2ccc(C#N)cc2)ncc1SCC(=O)Nc1ccc(S(C)(=O)=O)cc1 | IIIB |  | MTT |  | 0.0065 µM
COC(=O)C(=O)N1CCC[C@H]1C(=O)N[C@@H](Cc1ccccc1)C(=O)N[C@@H](CC(N)=O)C(=O)N[C@@H](Cc1ccccc1)[C@H](O)C(=O)N1CCC[C@H]1C(=O)NC(C)(C)C |  |  | antigen |  | >100 µg/mL
CCc1c(NC)nc(Nc2ccc(C#N)cc2)nc1Oc1ccc2ccccc2c1 | IIIB | WT | MTT |  | 0.031 µM
C=C1[C@H](CO)[C@@H](O)C[C@@H]1n1cnc2c(=O)[nH]c(N)nc21 | NL4-3 |  | absorbance |  | 1.02 µM
COC(=O)C(=O)N1CCC[C@H]1C(=O)N[C@H](Cc1ccccc1)C(=O)N[C@H](C)C(=O)Nc1ccc(OCC(=O)N[C@@H](CC(N)=O)C(=O)N[C@@H](Cc2ccccc2)[C@H](O)C(=O)N2CCC[C@H]2C(=O)NC(C)(C)C)cc1 |  |  | antigen |  | >100 µg/mL
Cc1cc(C#N)cc(C)c1Oc1nc(Nc2ccc(C#N)cc2)ncc1SCC(=O)NC1CC1 |  | L100I | MTT |  | 0.0121 µM
COc1cccc2c1c(/C(O)=C\C(=O)C(=O)O)cn2Cc1ccc(F)cc1 | IIIB |  | MTT |  | 0.59 µM
COc1cc([C@@H]2Oc3cc([C@H]4Oc5cc(O)cc(O)c5C(=O)[C@@H]4O)ccc3O[C@H]2COP(=O)(O)OC[C@H]2O[C@H](OC)[C@H](O)[C@@H](O)[C@@H]2O)ccc1O | IIIB |  | MTT |  | >160 µM
COC(=O)C(=O)N1CCC[C@H]1C(=O)N[C@@H](Cc1ccccc1)C(=O)Nc1ccccc1OCC(=O)N[C@@H](CC(N)=O)C(=O)N[C@@H](Cc1ccccc1)[C@H](O)C(=O)N1CCC[C@H]1C(=O)NC(C)(C)C |  |  | antigen |  | 60 µg/mL
O=C(NCCc1ccccc1)NCc1ccoc1 |  |  | cytopathic effect / XTT |  | >10 µg/mL
C=C(c1ccccc1)c1c(CC)c(=O)[nH]c(=O)n1COCC#Cc1ccccc1 | IIIB |  | cytopathic effect / MTT |  | 3.8 µM
COc1cc([C@@H]2Oc3cc([C@H]4Oc5cc(O)cc(O)c5C(=O)[C@@H]4O)ccc3O[C@H]2CO)ccc1O | IIIB |  | MTT |  | >110 µM
[N-]=[N+]=N[C@]1(CO)O[C@@H](n2cnc3c(N)nc(N)nc32)C[C@@H]1O | NL4-3 |  | absorbance |  | 0.003 µM
CCCCOC(=O)c1ccc(NC(=O)NCCc2ccccc2)cc1 |  |  | cytopathic effect / XTT |  | >10 µg/mL
COC(=O)C(=O)N1CCC[C@H]1C(=O)N[C@H](Cc1ccccc1)C(=O)N[C@@H](CC(N)=O)C(=O)N[C@@H](Cc1ccccc1)[C@H](O)C(=O)N1CCC[C@H]1C(=O)NC(C)(C)C |  |  | antigen |  | >100 µg/mL
Cn1cc(NC(=O)Nc2cc(C(=O)Nc3cc(C(=O)Nc4ccc(S(=O)(=O)O)c5cc(S(=O)(=O)O)ccc45)n(C)c3)n(C)c2)cc1C(=O)Nc1cc(C(=O)Nc2ccc(S(=O)(=O)O)c3cc(S(=O)(=O)O)ccc23)n(C)c1 | A17 | PYR-R | cytopathic effect / XTT |  | 4.5 µM
CCC(C)[C@@H](C(=O)N[C@@H](Cc1ccccc1)[C@H](O)CN(CC(C)C)S(=O)(=O)c1ccc(/C=N/O)cc1)N1CC(=O)N(Cc2ccncc2)C1=O | A17 (LPV-resistant) | PR-L10F V32I M46I I47V Q68E I84V | cytopathic effect / MTT |  | 0.001 µM
N#Cc1ccc(-c2nc3ncc(Br)cc3[nH]2)cc1 | IIIB |  | MTT |  | >53 µM
Cn1c2ccccc2c2c1cc(C#N)c(=O)n2-c1ccc([N+](=O)[O-])cc1 | G | RT-V106A F227L | cytopathic effect / MTT |  | 0.06 µM
Cc1cn([C@H]2C=C[C@@H](CO)O2)c(=O)[nH]c1=O | XM-T69SSS | RT-T69SSS L210W T215Y | p24 |  | <2.7 µM
CCN[C@H]1[C@@H](OC)O[C@H](COP(=O)(O)OC[C@@H]2Oc3ccc([C@H]4Oc5cc(O)cc(O)c5C(=O)[C@@H]4O)cc3O[C@H]2c2ccc(O)c(OC)c2)[C@@H](O)[C@@H]1O | IIIB |  | MTT |  | 73 µM
N#C[C@]1(CO)O[C@@H](n2cnc3c(=O)[nH]c(N)nc32)C[C@@H]1O | NL4-3 |  | absorbance |  | 0.0004 µM
COC(O)c1cnc(Nc2ccc(C#N)cc2)nc1Nc1c(C)cc(/C=C/C#N)cc1C | PSI (IIIB) |  |  |  | 240 µM
Nc1nc(NC2CC2)c2ncn([C@H]3C=C[C@@H](CO)C3)c2n1 | XM-T69SSS | RT-T69SSS L210W T215Y | p24 |  | <32 µM
COCCNC(=O)CSc1cnc(Nc2ccc(C#N)cc2)nc1Oc1c(C)cc(C#N)cc1C |  | K103N | MTT |  | 0.0019 µM
O=C(NCCc1ccccc1)Nc1nc2ccc(F)cc2s1 |  |  | RT activity |  | <100 µg/mL
N#Cc1ccc(Nc2nccc(Oc3cc4ccc(Br)cc4cc3Br)n2)cc1 | IIIB | K103N + Y181C | MTT |  | >50.39 µM
COc1ccc(CCNC(=S)Nc2nccs2)cc1OC |  |  | cytopathic effect / XTT |  | >100 µg/mL
C=C(c1ccccc1)c1c(CC)c(=O)[nH]c(=O)n1COCC=C(C)C | IIIB |  | cytopathic effect / MTT |  | 3.1 µM
COCc1cccc(CN2CCN([C@H](C(=O)N[C@@H](Cc3ccccc3)[C@H](O)CN(CC(C)C)S(=O)(=O)c3ccc(/C=N/O)cc3)C(C)(C)C)C2=O)n1 |  |  | cytopathic effect / MTT | 50% human serum | 0.023 µM
C=CCOCn1c(C(=C)c2cc(C)cc(C)c2)c(CC)c(=O)[nH]c1=O | IIIB | RT-Y181C | cytopathic effect / MTT |  | >100 µM
CCC(C)Sc1nc(C2(c3c(F)cccc3F)CC2)c(C)c(=O)[nH]1 | NL4-3 |  | MTT |  | 0.00725 µM
CCC(O)c1cnc(Nc2ccc(C#N)cc2)nc1Nc1c(C)cc(/C=C/C#N)cc1C | MDR |  |  |  | 2.19 µM
CC(C)(C)NC(=O)[C@@H]1CCCN1C(=O)[C@@H](O)[C@H](Cc1ccccc1)NC(=O)[C@H](CC(N)=O)NC(=O)OCc1ccccc1 |  |  | antigen |  | <1 µg/mL
CNc1nc(Nc2ccc(C#N)cc2)nc(Oc2ccc3ccccc3c2)c1C(C)C | IIIB | WT | MTT |  | 0.088 µM
O=C(NCCc1ccccc1)Nc1cnccn1 |  |  | RT activity |  | <1 µg/mL
CC(C)[C@H](NC(=O)OCc1ccccn1)C(=O)N[C@@H](Cc1ccccc1)[C@@H](O)C[C@H](Cc1ccccc1)NC(=O)OCc1cccnc1 | NL4-3 | PR-L10R L63P V82T I84V | p24 |  | <1.5 µM
COP(=O)(c1cc(C)cc(CCC#N)c1)c1c(C(N)=O)[nH]c2ccc(Cl)cc12 | BH10 |  | cytopathic effect |  | 0.0002 µM
CCc1c(NC)nc(Nc2ccc(C#N)cc2)nc1Oc1ccc2cc(C#N)ccc2c1 | IIIB | WT | MTT |  | 0.006 µM
Cc1cc(C#N)cc(C)c1Oc1nc(Nc2ccc(C#N)cc2)ncc1SCC(=O)NCC1CCCO1 |  | E138K | MTT |  | 0.0169 µM
O=C(CC1Nc2ccccc2S(=O)(=O)n2cccc21)Oc1ccc(Cl)cc1 | IIIB |  | MTT |  | 124 µM
Cc1c(C(C)c2c(F)cccc2F)nc(N(C)C)[nH]c1=O |  | K103N + Y181C | MTT |  | 90 µM
O=C(O)CCN(CCN(CC(=O)O)Cc1cnc2c(O)cccc2c1)CC(=O)O | HXB2 |  | RT activity |  | 10.2 µM
Cc1cc(C#N)cc(C)c1Oc1nc(Nc2ccc(C#N)cc2)ncc1SCC(=O)NCCN1CCOCC1 |  | F227L V106A | MTT |  | 0.2216 µM
O=C1CC2c3cccn3S(=O)(=O)c3ccccc3N12 | IIIB |  | MTT |  | 18 µM
Cc1c(Cl)nc(Nc2ccc(C#N)cc2)nc1Oc1ccc2ccccc2c1 | IIIB | WT | MTT |  | 0.091 µM
C=C[C@]1(CO)O[C@@H](n2cnc3c(=O)[nH]c(N)nc32)C[C@@H]1O | NL4-3 |  | absorbance |  | 0.004 µM
C#CCOCn1c(C(=C)c2cc(C)cc(C)c2)c(CC)c(=O)[nH]c1=O | IIIB |  | cytopathic effect / MTT |  | 0.03 µM
COCCOC(O)c1cnc(Nc2ccc(C#N)cc2)nc1Nc1c(C)cc(/C=C/C#N)cc1C | MDR |  |  |  | 151 µM
CSCCSc1nc(C2(c3c(F)cccc3F)CC2)c(C)c(=O)[nH]1 | NL4-3 |  | MTT |  | 0.00575 µM
O=C(NCCc1ccccc1)Nc1nc2ccc(Cl)cc2s1 |  |  | cytopathic effect / XTT |  | <10 µg/mL
CCC(C)[C@@H](C(=O)N[C@@H](Cc1ccccc1)[C@H](O)CN(CC(C)C)S(=O)(=O)c1ccc(/C=N/O)cc1)N1CCN(Cc2cnccc2C)C1=O |  |  | cytopathic effect / MTT | 50% human serum | 0.042 µM
CC(C)(C)NC(=O)[C@@H]1C[C@H](O)CN1C(=O)[C@@H](O)[C@H](Cc1ccccc1)NC(=O)[C@H](CC(N)=O)NC(=O)OCc1ccccc1 |  |  | antigen |  | 4.5–6 µg/mL
Cc1cc(/C=C/C#N)cc(C)c1Nc1nc(Nc2ccc(C#N)cc2)ncc1C(O)C(C)C | Y181C |  |  |  | 0.219 µM
O=C1[C@@H](Cc2ccccc2)NC(=S)N1c1ccccc1 |  |  | RT activity |  | <10 µg/mL

A second listing of 8 rows from above:

| SMILES | strain | mutations | read by | conditions | value |
|---|---|---|---|---|---|
| O=C1CC2c3cccn3S(=O)(=O)c3ccccc3N12 | IIIB |  | MTT |  | 18 µM |
| Cn1cc(NC(=O)Nc2cc(C(=O)Nc3cc(C(=O)Nc4ccc(S(=O)(=O)O)c5cc(S(=O)(=O)O)ccc45)n(C)c3)n(C)c2)cc1C(=O)Nc1cc(C(=O)Nc2ccc(S(=O)(=O)O)c3cc(S(=O)(=O)O)ccc23)n(C)c1 | A17 | PYR-R | cytopathic effect / XTT |  | 4.5 µM |
| CCc1c(Cl)nc(Nc2ccc(C#N)cc2)nc1Oc1ccc2cc(C#N)ccc2c1 | IIIB | WT | MTT |  | 0.667 µM |
| Cc1cc(C#N)cc(C)c1Oc1nc(Nc2ccc(C#N)cc2)ncc1SCC(=O)NC1CC1 |  | L100I | MTT |  | 0.0121 µM |
| O=S1(=O)c2ccccc2-n2cnnc2-c2cccn21 | IIIB |  | MTT |  | 46 µM |
| COc1ccc(-c2nc(-c3ccc(N4C(=O)C=CC5C4c4ccccc4N5C)cc3)no2)cc1OC | LAI |  | cytopathic effect / MTT |  | 1–32 µM |
| C#CCOCn1c(C(=C)c2cc(C)cc(C)c2)c(CC)c(=O)[nH]c1=O | IIIB |  | cytopathic effect / MTT |  | 0.03 µM |
| COc1cc([C@@H]2Oc3cc([C@H]4Oc5cc(O)cc(O)c5C(=O)[C@@H]4O)ccc3O[C@H]2COP(=O)(O)OC[C@H]2O[C@H](OC)[C@H](O)[C@@H](O)[C@@H]2O)ccc1O | IIIB |  | MTT |  | >160 µM |